Anti-infective test results gathered from many reports (values: NIAID ChemDB through PubChem).

Shared fields: tests in culture; organism: Aspergillus flavus; measure: inhibition

Blank or dashed fields: not listed here.

SMILES,strain or isolate,read by,dose,value
O=C(O)CN=Cc1ccccc1O,,,200 µg/mL,15%
COc1c(O)c(C=O)c2c(c1C(C)C)C(=O)C(C)=C(C1=C(C)C(=O)c3c(c(C=O)c(O)c(OC)c3C(C)C)C1=O)C2=O,ATCC 96044,,100 µg/mL,52.9%
CSc1ccc(C2CC(c3ccc(C)cc3)=NN2c2ccccc2)cc1,NCIM 594,broth dilution,2000 µg/mL,38.63%
Nc1nc(/N=C/c2c(O)ccc3ccccc23)n[nH]1,,agar diffusion / agar,200 µg/mL,61%
Cc1noc(NS(=O)(=O)c2ccc(N=Cc3c[nH]c4ccccc34)cc2)c1C,,,200 µg/mL,55%
Nc1nc(/N=C/c2c([O-])ccc3ccccc23)n[nH]1.Nc1nc(/N=C/c2c([O-])ccc3ccccc23)n[nH]1.[O]=[V+2],,agar diffusion / agar,200 µg/mL,70%
CSc1ccc(C2CC(c3ccc(F)cc3)=NN2c2ccccc2)cc1,NCIM 594,broth dilution,2000 µg/mL,94.82%
Nc1nc(/N=C/c2ccccn2)n[nH]1,,agar diffusion / agar,200 µg/mL,45%
NS(=O)(=O)c1ccc(N=Cc2c[nH]c3ccccc23)cc1,,,200 µg/mL,55%
COc1c(O)cc2c(O)c(-c3c(C)c(=O)c4c(C(C)C)c(=O)c(=O)cc-4c3=O)c(C)c(O)c2c1C(C)C,ATCC 96044,,100 µg/mL,70.7%
CSc1ccc(C2CC(c3cccc4c3OCO4)=NN2c2ccccc2)cc1,NCIM 594,broth dilution,2000 µg/mL,31.19%
NC(N)=NS(=O)(=O)c1ccc(N=Cc2c[nH]c3ccccc23)cc1,,,200 µg/mL,30%
CSc1ccc(C2CC(c3ccc(Cl)cc3)=NN2c2ccccc2)cc1,NCIM 594,broth dilution,2000 µg/mL,13.11%
Nc1nc(/N=C/c2ccc[n-]2)n[nH]1.Nc1nc(/N=C/c2ccc[n-]2)n[nH]1.[O]=[V+2],,agar diffusion / agar,200 µg/mL,65%
CSc1ccc(C2CC(c3cccc(Br)c3)=NN2c2ccccc2)cc1,NCIM 594,broth dilution,2000 µg/mL,91.36%
Cc1cccc(C=NNC(N)=S)n1,MTC 00040,broth dilution,500 µg/mL,100%
COc1ccc(C2=NN(c3ccccc3)C(c3ccc(SC)cc3)C2)cc1OC,NCIM 594,broth dilution,2000 µg/mL,63.83%
C/C(=N\c1n[nH]c(N)n1)c1ccccn1.C/C(=N\c1n[nH]c(N)n1)c1ccccn1.[O]=[V+2],,agar diffusion / agar,200 µg/mL,63%
Cc1c(-c2c(C)c(=O)c3c(C(C)C)c(=O)c(=O)c(C=O)c-3c2=O)c(O)c2c(C=O)c(O)c(O)c(C(C)C)c2c1O,ATCC 96044,,100 µg/mL,71%

2 of the rows above, restated:

SMILES	strain or isolate	read by	dose	value
CSc1ccc(C2CC(c3ccc(F)cc3)=NN2c2ccccc2)cc1	NCIM 594	broth dilution	2000 µg/mL	94.82%
Nc1nc(/N=C/c2c([O-])ccc3ccccc23)n[nH]1.Nc1nc(/N=C/c2c([O-])ccc3ccccc23)n[nH]1.[O]=[V+2]		agar diffusion / agar	200 µg/mL	70%

Rows are shuffled and stem from different studies. Inhibition is in % at the dose shown (toxicity tests: loss of growth or viability).